## Primary screen of a compound library

Measurements from “University of Dundee, Small-Polar-MMV Screening Library” (2021), ChEMBL document CHEMBL3988442.

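Phenotypic screen: M. tuberculosis growth, cholesterol and DPPC medium, 4 days; the read-out is not stated. Compounds at 500 µM. Higher reads as more growth inhibition (inferred: compounds with an IC50 in retests scored well above the rest). Size under these conditions: about 18,000 compounds, about 900 of them at 50% or above in at least one test.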

The filed quantity is “Percent Effect” (%).
The controls that fix the scale are not given in the record; negative values are as filed.
Many other results are left out here, so strong results are more common than in the screen.

* CN(CC(=O)Nc1sccc1C(N)=O)Cc1cccs1 | 67.4%
* CC(=O)OCc1cc(=O)n2ccsc2n1 | 0.2113%
* CC(C)n1cnc(S(=O)(=O)NCC2CCCCN2)c1 (configuration not stated) | 2.317%
* O=C(COc1ccc(F)cc1)NC1CC1 | 36.14%
* CCC(NC(=O)c1cc(C)[nH]c(=O)c1)c1nc(C)c[nH]1 (configuration not stated) | 4.817%
* CNCC1CCCN(C(=O)c2cccc(C)c2F)C1 (configuration not stated) | -1.872%
* CCC(CO)Nc1nccc(C(F)(F)F)n1 (configuration not stated) | 53.48%
* NCc1ccccc1CN1CCCC1CO (configuration not stated) | -2.963%
* CN(CC(=O)N1CCNC1=O)Cc1ccc(Cl)s1 | 1.008%
* CNC(=O)CCSc1ccc2c(c1)OCCO2 | 72.06%
* CC(CO)(CO)NCc1cnn(-c2ccc(Br)cc2)c1 | 59.74%
* Cc1cnccc1NCCNC(=O)c1ccncc1 | 6.63%
* CC(C)Cc1cc(C(=O)NCC(O)C(F)(F)F)[nH]n1 (configuration not stated) | 59.13%
* CCc1ccc(CN2CCN(C(=O)N(C)C)CC2)o1 | 51.82%
* O=C(NCC(=O)c1cccs1)c1ccon1 | 31.63%
* CCOC(=O)C1(N)CCN(C)CC1 | -20.71%
* CCc1ccsc1C(N)=O | -12.36%
* Cc1noc(CSCC(=O)NCc2ccccc2F)n1 | 22.66%
* Cc1cc(CN)on1 | 108%
* CN(Cc1ccccc1)CC(O)CN1CCOCC1 (configuration not stated) | -1.892%
* Cc1nccc(N2CCN(C(=O)C3CC=CC3)CC2)n1 | 10.89%
* Cc1ccc(C(=O)NCc2ccc3c(c2)OCCO3)o1 | 72.46%
* CC(C)N(C)S(=O)(=O)N(C)Cc1ccc(Br)o1 | 83.9%
* Cc1cc(S(=O)(=O)NCCN)ccc1F | 14.03%
* CC(C)(N)CN1CCN(c2cccc(Cl)c2)CC1 | 91.3%
* NC(=O)C(c1ccc(Br)cc1F)N1CC[S+]([O-])CC1 (configuration not stated) | -5.182%
* CC(C)NC(=O)CSc1nc(C=Cc2cccs2)n[nH]1 | 88.49%
* CN(CCOc1ccc(Cl)cc1)S(C)(=O)=O | 66.95%
* CN(CC(N)=O)C(=O)c1csc(-c2ccc(F)cc2)n1 | -9.434%
* O=C(CN1C(=O)CC2(CCCC2)C1=O)NCC1CC1 | 19.59%
* Cc1cccc(CC(=O)NCC2CCNCC2)c1 | 18.28%
* CCCS(=O)(=O)N(C)Cc1ccc(OCC)cn1 | 69.15%
* CC(C)Nc1ncccc1C(=O)Nc1nncs1 | 55.95%
* Cc1cncc(C(=O)NCCc2cncn2C)c1 | -1.754%
* CN1CCCN(C(=O)COc2ccccc2)CC1 | 4.241%
* CCC(CC)C(CN)N1CCCC1 (configuration not stated) | 38.88%
* Cc1nn(C)c(Cl)c1C1CCCN1 (configuration not stated) | -4.685%
* CC(C)CCNC(=O)c1ccc2c(c1)C(=O)N(C)C2=O | -11.75%
* Cc1noc(C)c1CN1CCC(C(N)=O)CC1 | -2.425%

4 of the entries, repeated:

* Cc1ccc(C(=O)NCc2ccc3c(c2)OCCO3)o1 | 72.46%
* CC(=O)OCc1cc(=O)n2ccsc2n1 | 0.2113%
* NC(=O)C(c1ccc(Br)cc1F)N1CC[S+]([O-])CC1 (configuration not stated) | -5.182%
* NCc1ccccc1CN1CCCC1CO (configuration not stated) | -2.963%